Molecular target: YopH (Yersinia pseudotuberculosis serotype I, UniProt P08538)
Conditions: read-out: YopH IC50

The chains behind the UniProt entries cited, without tags or fusion partners. Where a name states a change or a piece, a line headed by the entry shows the natural chain unless it says otherwise.
UniProt P08538: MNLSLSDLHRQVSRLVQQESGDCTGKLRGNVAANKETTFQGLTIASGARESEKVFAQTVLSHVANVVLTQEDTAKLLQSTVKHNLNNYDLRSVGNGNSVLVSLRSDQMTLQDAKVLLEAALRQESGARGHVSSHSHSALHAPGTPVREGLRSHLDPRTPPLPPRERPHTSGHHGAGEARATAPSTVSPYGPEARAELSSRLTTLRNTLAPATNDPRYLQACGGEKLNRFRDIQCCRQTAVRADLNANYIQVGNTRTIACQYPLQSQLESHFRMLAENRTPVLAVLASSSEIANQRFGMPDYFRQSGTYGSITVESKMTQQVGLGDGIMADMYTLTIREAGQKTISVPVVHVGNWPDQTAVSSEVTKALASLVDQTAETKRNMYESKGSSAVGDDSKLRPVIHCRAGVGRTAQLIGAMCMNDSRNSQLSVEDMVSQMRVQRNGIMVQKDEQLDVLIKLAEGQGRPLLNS

## O=C(Nc1ccc(OCc2ccccc2)c(Cl)c1)C(=O)Nc1ccccc1NC(=O)[C@H](c1ccccc1)S(=O)(=O)O [8k]
  IC50: > 50 µM
